Measured values from several laboratories, pooled; numbers as filed in NIAID ChemDB.

Shared fields: tests in culture; agent: Influenza B virus; cell line: MDCK; read-out: EC50

a–b is a range or a potency band.

{"smiles": "CC=NC(=N)c1nc(-c2ccc(C)cc2)n(C/C=C/c2ccccc2)n1", "strain": "Singapore", "method": "cytopathic effect", "result": ">20 µg/mL"}
{"smiles": "CCC", "strain": "B/HONG KONG/8/73", "result": ">50 µM"}
{"smiles": "CC=NC(=N)c1nc(-c2ccccc2)n(COCCO)n1", "strain": "Singapore", "method": "cytopathic effect", "result": ">100 µg/mL"}
{"smiles": "Nc1nc2c(ncn2[C@@H]2O[C@H](CO)[C@@H](O)[C@H]2F)c(=O)[nH]1", "strain": "B/HONG KONG/73", "method": "plaque count", "result": "2.5 µM"}
{"smiles": "CC1=C(C)C2C(N)C1[C@@H](C(C)C)C[C@@H]2C", "method": "plaque count", "result": "35 µM"}
{"smiles": "Nc1nccc(NCC2(CO)CCC2)n1", "strain": "B/GIFU/2/73", "method": "plaque count", "result": ">480 µM"}
{"smiles": "CC=NC(=N)c1nc(-c2ccc(OC)cc2)n(COCCO)n1", "strain": "Singapore", "method": "cytopathic effect", "result": ">200 µg/mL"}
{"smiles": "CCC(CC)[C@H](NC(C)=O)[C@@H]1[C@H](O)[C@@H](C(=O)O)C[C@H]1N=C(N)N", "strain": "B/Beijing/184/93", "result": "0.06 µM"}
{"smiles": "CCC(CC)[C@H](NC(C)=O)[C@@H]1C[C@@H](C(=O)O)C[C@H]1N=C(N)N", "strain": "LEE/40", "result": "8 µM"}
{"smiles": "C[C@H]1CC2CCCC1C2N", "method": "plaque count", "result": "55 µM"}
{"smiles": "CC(C)C1CC(CO)(CNc2nc(N)nc(Cl)c2C=O)C1", "strain": "B/GIFU/2/73", "method": "plaque count", "result": "14–22 µM"}
{"smiles": "CC(C)[C@@H]1CCC2(C)C(N)C1[C@H](C)[C@@H]2C", "method": "plaque count", "result": ">50 µM"}
{"smiles": "CC=NC(=N)c1nc(-c2cccc(C)c2)n(Cc2ccccc2)n1", "strain": "Singapore", "method": "cytopathic effect", "result": ">20 µg/mL"}
{"smiles": "C[C@H]1C2CCCC(C)(C2N)[C@H]1C", "method": "plaque count", "result": "64.3 µM"}
{"smiles": "CC(=O)N[C@H]1[C@H]([C@H](O)[C@H](O)CO)OC(C(=O)O)=C[C@@H]1N=C(N)N", "strain": "HONG KONG/5/72", "result": "1 µM"}
{"smiles": "Nc1nc(Cl)cc(NCC2(CO)CC(OCc3ccccc3)C2)n1", "strain": "B/GIFU/2/73", "method": "plaque count", "result": "7.2–16 µM"}
{"smiles": "CC=NC(=N)c1nc(-c2ccccc2)n(Cc2ccccc2)n1", "strain": "Singapore", "method": "cytopathic effect", "result": ">20 µg/mL"}
{"smiles": "C/C=C\\[C@@H]1C[C@H](C(=O)O)N[C@H]1[C@@H](NC(C)=O)[C@](C)(CCC)OC", "strain": "Isolate C29C", "method": "plaque count", "result": "<0.01 µg/mL"}
{"smiles": "Nc1ncnc2c1ccn2[C@@H]1C[C@H](O)[C@@H](O)[C@H]1O", "strain": "Singapore/222/79", "result": ">100 µg/mL"}
{"smiles": "[N-]=C=Nc1nncs1", "strain": "B/Virginia/88", "method": "virus yield", "result": "<1 µg/mL"}
{"smiles": "N#CNc1nncs1", "strain": "B/Maryland/11/59", "method": "plaque count", "result": "0.75 µg/mL"}
{"smiles": "C=C(N=CC)c1nc(-c2ccccc2)n(C2O[C@H](CO)[C@@H](O)[C@H](O)[C@H]2O)n1", "strain": "Singapore", "method": "cytopathic effect", "result": ">200 µg/mL"}
{"smiles": "CC1=C(C)C2C(N)C1[C@H](C(C)C)C[C@@H]2C", "method": "plaque count", "result": "37 µM"}
{"smiles": "CCC(CC)O[C@@H]1C=C(C(=O)O)C[C@H](N)[C@H]1NC(C)=O", "strain": "B/Harbin/07.94", "method": "plaque count", "result": "0.091 µM"}
{"smiles": "CC=NC(=N)c1nc(-c2ccc(OC)cc2)n(C/C=C/c2ccccc2)n1", "strain": "Singapore", "method": "cytopathic effect", "result": ">100 µg/mL"}

For reference, 2 entries again:

CC(=O)N[C@H]1[C@H]([C@H](O)[C@H](O)CO)OC(C(=O)O)=C[C@@H]1N=C(N)N ; strain: HONG KONG/5/72 ; result: 1 µM
Nc1nccc(NCC2(CO)CCC2)n1 ; strain: B/GIFU/2/73 ; method: plaque count ; result: >480 µM

Neighbouring rows are from separate reports. ECn is the concentration giving n% inhibition of infection, replication or growth.